Anti-infective test results gathered from many reports (values: NIAID ChemDB through PubChem).

Shared fields: target-level tests; species: HIV-1; protein: Protease

Blank or dashed fields: not listed here.

| structure | dose | method | measure | result |
|---|---|---|---|---|
| CC(C)(CO)NC(=O)[C@@H]1CSCN1C(=O)[C@@H](O)[C@H](Cc1ccccc1)NC(=O)[C@H](CS(C)(=O)=O)NC(=O)COc1cccc2ccccc12 |  |  | IC50 | <0.05 µM |
| COC(=O)[C@@H](NC(=O)CCCCCC(=O)N[C@H](C(=O)OC)C(C)C)C(C)C | 10 µM | absorbance | inhibition | <10% |
| CC(C)C[C@@H](C(=O)NCCc1ccccc1)N1C[C@@H]2O[C@H](C1=O)[C@H](C(=O)N1CCCCC1)O2 | 10 µM | FRET | inhibition | 0% |
| CC(C)(CCCCNC(=O)CO)CN(C[C@@H](O)[C@H](Cc1ccccc1)NC(=O)O[C@H]1CO[C@H]2OCC[C@H]21)S(=O)(=O)c1ccc2c(c1)OCO2 |  | fluorescence | Ki | <0.001 µM |
| CCOC(=O)C1CCN(C(=O)[C@@H]2O[C@H]3O[C@@H]2C(=O)N(Cc2ccccc2)[C@H]3Cc2ccccc2)CC1 | 10 µM | FRET | inhibition | 0% |
| C=C(C)OC(=O)NCCCC(C)(C)CN(C[C@@H](O)[C@H](Cc1ccccc1)NC(=O)O[C@H]1CO[C@H]2OCC[C@H]21)S(=O)(=O)c1ccc2c(c1)OCO2 |  | fluorescence | Ki | <0.001 µM |
| CC[C@H](C)COC(=O)[C@@H](Cc1ccccc1)NC(=O)C(=O)N[C@H](Cc1ccccc1)C(=O)OC[C@@H](C)CC | 10 µM | absorbance | inhibition | <10% |
| CC(=O)NCC(=O)NCCCCC(C)(C)CN(C[C@@H](O)[C@H](Cc1ccccc1)NC(=O)O[C@H]1CO[C@H]2OCC[C@H]21)S(=O)(=O)c1ccc2c(c1)OCO2 |  | fluorescence | Ki | <0.001 µM |
| CC(C)COC(=O)[C@H](CC(C)C)NC(=O)C(=O)N[C@@H](CC(C)C)C(=O)OCC(C)C | 10 µM | absorbance | inhibition | <10% |
| CC(C)(CCCCNC(=O)N1CCOCC1)CN(C[C@@H](O)[C@H](Cc1ccccc1)NC(=O)O[C@H]1CO[C@H]2OCC[C@H]21)S(=O)(=O)c1ccc2c(c1)OCO2 |  | fluorescence | Ki | <0.001 µM |
| COC1C[C@@H](C(=O)NC(C)(C)C)N(C(=O)[C@@H](O)[C@H](Cc2ccccc2)NC(=O)[C@H](CS(C)(=O)=O)NC(=O)COc2cccc3ccccc23)C1 | 0.05 µM |  | inhibition | 25.2% |
| O=C1[C@H]2O[C@@H](CN1Cc1ccccc1)O[C@H]2C(=O)N1CCC[C@@H]1CO | 1 µM | FRET | inhibition | 0% |
| CC(C)(C)NC(=O)[C@H]1N(C(=O)[C@@H](O)[C@H](Cc2ccccc2)NC(=O)[C@H](CC(N)=O)NC(=O)COc2cccc(Nc3ccccc3)c2)CSC1(C)C | 0.05 µM |  | inhibition | 99.1% |
| COc1cccc(S(=O)(=O)N(C[C@@H](O)[C@H](Cc2ccccc2)NC(=O)O[C@H]2CO[C@H]3OCC[C@H]32)CC(C)(C)CCCNC(=O)OC(C)C)c1 |  | fluorescence | Ki | <0.001 µM |
| CC(C)(C)OC(=O)N[C@@H](Cc1ccccc1)[C@H](O)C(=O)N1CCC[C@H]1C(=O)NCC1CCCCC1 | 1000 µM |  | inhibition | 42.5% |
| CC(C)COC(=O)[C@H](CC(C)C)NC(=O)N[C@@H](CC(C)C)C(=O)OCC(C)C | 10 µM | absorbance | inhibition | 41% |
| CC(C)(C)NC(=O)[C@@H]1Cc2ccccc2CN1C(=O)[C@@H](O)[C@H](Cc1ccccc1)NC(=O)[C@H](CC(N)=O)NC(=O)OCc1ccccc1 |  |  | IC50 | >0.05 µM |
| CONC(=O)OCCC(C)(C)CN(C[C@@H](O)[C@H](Cc1ccccc1)NC(=O)O[C@H]1CO[C@H]2OCC[C@H]21)S(=O)(=O)c1ccc2c(c1)OCO2 |  | fluorescence | Ki | <0.001 µM |
| CC(C)CNC(=O)[C@@H](NC(=O)[C@H](Cc1ccccc1)NC(=O)[C@H](O)[C@H](Cc1ccccc1)NC(=O)[C@@H](NC(=O)OC(C)(C)C)C(C)C)C(C)C | 5 µM |  | inhibition | 5.4% |
| CN1CCN(C(=O)[C@@H]2O[C@H]3O[C@@H]2C(=O)N(Cc2ccccc2)[C@@H]3Cc2ccccc2)CC1 | 10 µM | FRET | inhibition | 80% |
| CC(C)[C@H](NC(=O)CCC(=O)CCC(=O)N[C@H](C(=O)OCc1ccccc1)C(C)C)C(=O)OCc1ccccc1 | 10 µM | absorbance | inhibition | <10% |
| COCC(=O)NCCCCCC(C)(C)CN(C[C@@H](O)[C@H](Cc1ccccc1)NC(=O)O[C@H]1CO[C@H]2OCC[C@H]21)S(=O)(=O)c1ccc2c(c1)OCO2 |  | fluorescence | Ki | <0.001 µM |
| CC(C)COC(=O)[C@H](Cc1ccccc1)NC(=O)CC(=O)N[C@@H](Cc1ccccc1)C(=O)OCC(C)C | 10 µM | absorbance | inhibition | 41% |
| CC(=O)CCC(C)(C)CN(C[C@@H](O)[C@H](Cc1ccccc1)NC(=O)O[C@H]1CO[C@H]2OCC[C@H]21)S(=O)(=O)c1cccc2c1OCCO2 |  | fluorescence | Ki | <0.001 µM |

The last 2 rows once more:

| structure | dose | method | measure | result |
|---|---|---|---|---|
| CC(C)COC(=O)[C@H](Cc1ccccc1)NC(=O)CC(=O)N[C@@H](Cc1ccccc1)C(=O)OCC(C)C | 10 µM | absorbance | inhibition | 41% |
| CC(=O)CCC(C)(C)CN(C[C@@H](O)[C@H](Cc1ccccc1)NC(=O)O[C@H]1CO[C@H]2OCC[C@H]21)S(=O)(=O)c1cccc2c1OCCO2 |  | fluorescence | Ki | <0.001 µM |

ICn: concentration for n% inhibition. Lines come from different laboratories, so protocols vary. Inhibition is in % at the dose shown (toxicity tests: loss of growth or viability).